## DMS reactivity of the HIV-1 5' RNA in monomer and dimer

The measurements come from Ye et al. 2022 (doi:10.1038/s41594-022-00746-2).

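Randomly mutated transcripts starting with one, two or three G (1G, 2G, 3G), capped or uncapped, were folded for 30 min at 37 °C. Monomer and dimer bands were cut from native gels after folding in high salt (300 mM KCl, 5 mM MgCl2) or low salt (40 mM KCl, 0.1 mM MgCl2). Each band was probed in the gel with DMS (170 mM, 15 min, 37 °C), with ethanol as control, and sequenced.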

RNA: 5' end of the HIV-1 NL4-3 genome, made in vitro. Positions 1-437 read:
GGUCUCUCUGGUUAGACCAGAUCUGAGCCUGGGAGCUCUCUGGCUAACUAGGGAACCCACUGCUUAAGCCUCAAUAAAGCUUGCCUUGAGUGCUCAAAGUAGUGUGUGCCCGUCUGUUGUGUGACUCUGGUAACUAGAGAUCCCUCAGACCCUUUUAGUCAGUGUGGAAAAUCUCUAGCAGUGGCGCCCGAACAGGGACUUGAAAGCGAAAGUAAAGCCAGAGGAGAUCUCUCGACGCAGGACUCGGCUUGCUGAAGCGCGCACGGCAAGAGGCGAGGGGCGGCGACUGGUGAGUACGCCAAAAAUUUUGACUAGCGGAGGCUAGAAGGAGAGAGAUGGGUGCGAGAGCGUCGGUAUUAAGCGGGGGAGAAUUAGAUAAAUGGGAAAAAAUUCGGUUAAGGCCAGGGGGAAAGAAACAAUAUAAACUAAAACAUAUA

Scale: normalised reactivity, A and C only; low values point to paired or protected bases, higher values to unpaired ones.
One numbering serves 1G, 2G and 3G.
A position is written with its base.

| position | domain | 3G uncapped high-salt dimer | 3G uncapped high-salt monomer |
|---|---|---|---|
| C343 | AUG | 0.38 | 0.64 |
| A345 | none | 1.21 | 1.28 |
| A347 | none | 0.16 | 0.25 |
| C349 | none | 0.26 | 0.28 |
| C352 | none | 0.37 | 0.32 |
| A356 | none | 0.98 | 0.80 |
| A359 | none | 0.48 | 0.54 |
| A360 | none | 0.50 | 0.53 |
| C362 | none | 0.38 | 0.49 |
| A368 | none | 0.81 | 0.94 |
| A370 | none | 0.47 | 0.53 |
| A371 | none | 0.94 | 0.91 |
| A374 | none | 0.40 | 0.48 |
| A376 | none | 0.69 | 0.74 |
| A378 | none | 0.21 | 0.23 |
| A379 | none | 0.55 | 0.60 |
| A380 | none | 0.78 | 0.81 |
| A385 | none | 0.53 | 0.53 |
| A386 | none | 1.33 | 1.31 |
| A387 | none | 0.22 | 0.24 |
| A388 | none | 0.06 | 0.08 |
| A389 | none | 0.12 | 0.16 |
| A390 | none | 0.90 | 0.94 |
| C393 | none | 0.57 | 0.58 |
| A398 | none | 0.15 | 0.16 |
| A399 | none | 0.20 | 0.17 |
| C402 | none | 0.03 | 0.03 |
| C403 | none | 0.03 | 0.03 |
| A404 | none | 0.27 | 0.18 |
| A410 | none | 0.40 | 0.46 |
| A411 | none | 0.82 | 0.87 |
| A412 | none | 0.47 | 0.52 |
| A414 | none | 0.43 | 0.46 |
| A415 | none | 0.19 | 0.24 |
| A416 | none | 0.40 | 0.52 |
| C417 | none | 0.76 | 0.87 |
| A418 | none | 0.58 | 0.68 |
| A419 | none | 0.44 | 0.48 |
| A421 | none | 0.35 | 0.36 |
| A423 | none | 0.36 | 0.42 |
| A424 | none | 0.28 | 0.34 |
| A425 | none | 0.47 | 0.52 |
| C426 | none | 0.71 | 0.75 |
| A428 | none | 0.10 | 0.11 |
| A429 | none | 0.65 | 0.74 |
| A430 | none | 0.47 | 0.55 |
| A431 | none | 0.51 | 0.60 |
| C432 | none | 0.85 | 0.89 |
| A433 | none | 0.69 | 0.73 |
| A435 | none | 0.46 | 0.50 |
| A437 | none | 0.03 | 0.03 |

The last 4 entries again:

position,domain,3G uncapped high-salt dimer,3G uncapped high-salt monomer
C432,none,0.85,0.89
A433,none,0.69,0.73
A435,none,0.46,0.50
A437,none,0.03,0.03